In the data set the test system is NC(=O)c1ccc[n+]([C@@H]2O[C@H](COP(=O)(O)OP(=O)(O)OC[C@H]3O[C@@H](n4cnc5c(N)ncnc54)[C@H](O)[C@@H]3O)[C@@H](O)[C@H]2O)c1. Kind of data set: purified protein. The note with it: pH 8.1.

Broadly, the Km is the substrate concentration at which the rate is half of its maximum.

In the case of (Pyricularia oryzae 70-15), the Km worked out at 857.8 ± 186.9 µM.

Values taken from PMC6422694.
